This data set is described as follows: Body weight and clinical observations in the murine thigh infection study. The settings on record: individual mice, day −1 (before treatment).

The structures appear in SMILES notation.

Consider one compound from patent US11746116B2, “Antibiotic resistance breakers” (KING'S COLLEGE LONDON, priority 2017, dated 2023).

As for `C[C@H]1COc2c(N3CC[C@@H](Nc4ncccn4)C3)c(F)cc3c(=O)c(C(=O)O)cn1c23`, the “Bodyweight raw data, day −1” value came to 29.1 (20 mg/kg group) and 29.1 (50 mg/kg group).
